Measurements taken from paper PMC5061470, “Promiscuous targeting of bromodomains by bromosporine identifies BET proteins as master regulators of primary transcription response in leukemia” (Science Advances, 2016).

By UniProt entry, the sequences of proteins in these tests, tags left out. Residues count along the entry.
UniProt P02708, 21-457: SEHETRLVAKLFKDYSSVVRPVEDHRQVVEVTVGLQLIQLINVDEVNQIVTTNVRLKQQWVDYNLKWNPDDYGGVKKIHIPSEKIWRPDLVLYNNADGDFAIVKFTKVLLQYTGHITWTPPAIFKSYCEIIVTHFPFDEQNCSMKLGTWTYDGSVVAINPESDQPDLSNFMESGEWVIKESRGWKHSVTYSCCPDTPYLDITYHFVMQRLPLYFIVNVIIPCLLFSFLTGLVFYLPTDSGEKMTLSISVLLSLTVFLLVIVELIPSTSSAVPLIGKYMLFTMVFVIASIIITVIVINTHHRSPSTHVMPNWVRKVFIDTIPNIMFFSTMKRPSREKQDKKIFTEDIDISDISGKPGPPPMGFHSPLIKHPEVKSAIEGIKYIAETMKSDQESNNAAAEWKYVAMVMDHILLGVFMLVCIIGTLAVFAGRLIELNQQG
UniProt P07510, 23-517: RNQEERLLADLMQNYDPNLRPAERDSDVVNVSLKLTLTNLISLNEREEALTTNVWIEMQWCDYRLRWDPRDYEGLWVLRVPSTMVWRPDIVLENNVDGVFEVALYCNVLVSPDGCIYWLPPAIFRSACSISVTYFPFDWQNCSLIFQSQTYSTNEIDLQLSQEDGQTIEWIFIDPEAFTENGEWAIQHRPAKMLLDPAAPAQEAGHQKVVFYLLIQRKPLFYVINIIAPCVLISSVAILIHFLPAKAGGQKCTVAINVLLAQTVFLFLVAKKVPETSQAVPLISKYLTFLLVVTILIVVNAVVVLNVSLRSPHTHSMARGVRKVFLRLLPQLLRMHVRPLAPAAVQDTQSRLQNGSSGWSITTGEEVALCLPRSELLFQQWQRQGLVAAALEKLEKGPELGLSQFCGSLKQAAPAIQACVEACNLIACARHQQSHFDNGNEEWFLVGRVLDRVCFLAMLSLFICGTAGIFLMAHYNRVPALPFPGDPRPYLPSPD
UniProt Q07001, 22-517: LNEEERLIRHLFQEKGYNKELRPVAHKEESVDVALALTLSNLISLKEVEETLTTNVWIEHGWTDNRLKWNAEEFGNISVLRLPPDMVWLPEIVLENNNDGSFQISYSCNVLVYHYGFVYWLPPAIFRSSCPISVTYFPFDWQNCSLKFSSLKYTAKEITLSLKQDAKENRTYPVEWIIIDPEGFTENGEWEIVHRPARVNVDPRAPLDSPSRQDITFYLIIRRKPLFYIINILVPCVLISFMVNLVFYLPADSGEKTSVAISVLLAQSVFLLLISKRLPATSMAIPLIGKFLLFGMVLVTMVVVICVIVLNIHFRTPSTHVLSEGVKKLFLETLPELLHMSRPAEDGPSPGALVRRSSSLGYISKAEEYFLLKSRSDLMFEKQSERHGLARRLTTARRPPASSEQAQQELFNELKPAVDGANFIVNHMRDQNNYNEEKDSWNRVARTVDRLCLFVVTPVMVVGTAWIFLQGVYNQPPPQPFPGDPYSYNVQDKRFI

Target: N muscle-type (h) (Homo sapiens, UniProt P02708+P07510+Q07001)
Type: binding

alpha -bungarotoxin
IC50: 3.2 nM
Ki (read-out: Ki Ref.): 3 nM
